# Laboratory results: US11820973B2, “Methods and system for interfering with viability of bacteria and related compounds and compositions” (CALIFORNIA INSTITUTE OF TECHNOLOGY, priority 2011, dated 2023)
# B1: conalbumin: Fe(III)-binding protein of the transferrin family, an Fe(III) chelator; substantially iron-free, from Sigma-Aldrich (protein, UniProt P02789 20-705, looked up)
# Ovotransferrin: APPKSVIRWCTISSPEEKKCNNLRDLTQQERISLTCVQKATYLDCIKAIANNEADAISLDGGQAFEAGLAPYKLKPIAAEVYEHTEGSTTSYYAVAVVKKGTEFTVNDLQGKTSCHTGLGRSAGWNIPIGTLLHRGAIEWEGIESGSVEQAVAKFFSASCVPGATIEQKLCRQCKGDPKTKCARNAPYSGYSGAFHCLKDGKGDVAFVKHTTVNENAPDQKDEYELLCLDGSRQPVDNYKTCNWARVAAHAVVARDDNKVEDIWSFLSKAQSDFGVDTKSDFHLFGPPGKKDPVLKDLLFKDSAIMLKRVPSLMDSQLYLGFEYYSAIQSMRKDQLTPSPRENRIQWCAVGKDEKSKCDRWSVVSNGDVECTVVDETKDCIIKIMKGEADAVALDGGLVYTAGVCGLVPVMAERYDDESQCSKTDERPASYFAVAVARKDSNVNWNNLKGKKSCHTAVGRTAGWVIPMGLIHNRTGTCNFDEYFSEGCAPGSPPNSRLCQLCQGSGGIPPEKCVASSHEKYFGYTGALRCLVEKGDVAFIQHSTVEENTGGKNKADWAKNLQMDDFELLCTDGRRANVMDYRECNLAEVPTHAVVVRPEKANKIRDLLERQEKRFGVNGSEKSKFMMFESQNKDLLFKDLTKCLFKVREGTTYKEFLGDKFYTVISSLKTCNPSDILQMCSFLEGK
# modifications: iron-free
# notes: substantially iron-free, from Sigma-Aldrich
# Tested on: P. aeruginosa PA14 feoB::MAR2xT7 mutant
# Experiment: Flow cell biofilm development, feoB::MAR2xT7 mutant, 1% TSB with conalbumin
# Details: 40 μg/ml conalbumin
molecule,measurement,value
B1,Biofilm formation with conalbumin (iron-free form) added,neither strain formed biofilms
